Measured values from several laboratories, pooled; numbers as filed in NIAID ChemDB.

Shared fields: target-level tests; agent: Hepatitis C virus

ICn is the concentration giving n% inhibition.

structure | target | read-out | tested at | value
O=C(NCCO)c1cc2nc(-c3ccc(Cl)cc3)cc(-c3ccc(Oc4ccccc4)cc3)n2n1 | RNA-dependent RNA polymerase | IC50 | - | >10 µM
Cn1c(C(=O)Nc2ccsc2-c2nc(C(=O)O)c(O)c(=O)[nH]2)cnc1Sc1ncc(C(F)(F)F)cc1Cl | HCV polymerase | IC50 | - | <25 µM
Cc1ccc(C(=O)N(C)c2cc(-c3cccnc3)sc2C(=O)O)cc1 | NS3 ATPase | IC50 | - | 5–20 µM
O=C(O)c1cc2nc(-c3ccccc3)cc(-c3ccccc3)n2n1 | RNA-dependent RNA polymerase | IC50 | - | >10 µM
Cc1ccc(C(=O)N(C)c2cc(-c3cccc(C)c3)sc2C(=O)O)cc1 | NS3 ATPase | IC50 | - | <5 µM
O=C(O)c1ccc2c(c1)nc(-c1ccc3nc(-c4cccc(OCC(=O)N5CCCC5)c4)ccc3c1)n2C1CCCCC1 | NS5B polymerase | inhibition | 33 µM | 95.76%
Cc1ccsc1-c1nc(C(=O)O)c(O)c(=O)[nH]1 | HCV polymerase | IC50 | - | <25 µM
O=C(O)c1ccc2c(c1)nc(-c1ccc3nc(-c4ccccc4-c4ccc(Cl)cc4)c(-c4ccccc4)cc3c1)n2C1CCCCC1 | NS5B polymerase | inhibition | 100 µM | 97.75%
CC(C)(C)c1ccc(CN(C(=O)C2CCC2)c2cc(-c3ccccc3)sc2C(=O)O)cc1 | NS3 ATPase | IC50 | - | <5 µM
O=C(CC1NCCc2ccccc21)Nc1ccsc1-c1nc(C(=O)O)c(O)c(=O)[nH]1 | HCV polymerase | IC50 | - | <25 µM
Cc1oc2ccc(OCc3ccccc3)cc2c1-c1ccc2cc(-c3nc4cc(C(=O)O)ccc4n3C3CCCCC3)ccc2n1 | NS5B polymerase | inhibition | 33 µM | 94.57%
c1cc(-c2cnc3c(-c4nn[nH]n4)cnn3c2C2CCCCC2)ccc1Oc1ccc2c(c1)OCO2 | RNA-dependent RNA polymerase | IC50 | - | 1–10 µM
CNC(=O)c1c(-c2ccc(F)cc2)oc2cc(NCc3ccoc3)c(OC(C)C)cc12 | Nonstructural protein 5B | IC50 | - | ≤0.5 µM
O=C(Nc1ccsc1-c1nc(C(=O)O)c(O)c(=O)[nH]1)c1cccc(F)c1F | HCV polymerase | IC50 | - | <25 µM
Cc1ccc(S(=O)(=O)N(C)c2cc(-c3ccccc3)sc2C(=O)O)c(C)c1Cl | NS3 ATPase | IC50 | - | 5–20 µM
COc1cc(O)c(-c2ccc3cc(-c4nc5cc(C(=O)O)ccc5n4C4CCCCC4)ccc3n2)c(OC)c1 | NS5B polymerase | inhibition | 100 µM | 102%
COc1cccc(NC(=O)Nc2cscc2-c2nc(C(=O)O)c(O)c(=O)[nH]2)c1 | HCV polymerase | IC50 | - | <25 µM
CNC(=O)c1c(-c2ccc(F)cc2)oc2cc(-c3ncon3)c(OC(C)C)cc12 | Nonstructural protein 5B | IC50 | - | ≤0.5 µM
c1cc(-c2cnc3c(-c4nn[nH]n4)cnn3c2C2CCCCC2)ccc1OC1CCCCC1 | RNA-dependent RNA polymerase | IC50 | - | 1–10 µM
O=C(O)c1nc(-c2ccccc2O)[nH]c(=O)c1O | HCV polymerase | IC50 | - | <100 µM
O=C(O)COc1cccc(-c2ccc3cc(-c4nc5cc(C(=O)O)ccc5n4C4CCCCC4)ccc3n2)c1 | NS5B polymerase | inhibition | 100 µM | 99.6%
O=C(O)c1sc(-c2ccccc2)cc1N(Cc1ccc(F)cc1F)C(=O)C1CCCCC1 | NS3 ATPase | IC50 | - | <5 µM
CN(Cc1ccccc1)c1cc(-c2ccc(Cl)cc2)nc2cc(C(=O)O)nn12 | RNA-dependent RNA polymerase | IC50 | - | >10 µM
COc1cc(Br)c2oc(-c3ccc4cc(-c5nc6cc(C(=O)O)ccc6n5C5CCCCC5)ccc4n3)cc2c1 | NS5B polymerase | inhibition | 33 µM | 98.9%
CNC(=O)c1c(-c2ccc(F)cc2)oc2cc(N(C)C3CC3)c(OC(C)C)cc12 | Nonstructural protein 5B | IC50 | - | ≤0.5 µM
COc1ccc(Oc2ccc(-c3cnc4c(-c5nn[nH]n5)cnn4c3C3CCCCC3)cc2)cc1F | RNA-dependent RNA polymerase | IC50 | - | <1 µM
O=C(Cc1ccc(Br)cc1)Nc1ccsc1-c1nc(C(=O)O)c(O)c(=O)[nH]1 | HCV polymerase | IC50 | - | <25 µM
O=C(O)c1ccc2c(c1)nc(-c1ccc3[nH]c(-c4ccccc4)cc(=O)c3c1)n2C1CCCCC1 | NS5B polymerase | inhibition | 100 µM | 83.79%
CNC(=O)c1c(-c2ccc(F)cc2)oc2cc(C3CCN(C(C)=O)C3)c(OC)cc12 | Nonstructural protein 5B | IC50 | - | ≤0.5 µM
O=C(O)c1cc2nc(-c3ccc(OCc4cccc(OC(F)(F)F)c4)cc3)c(C3CCCCC3)c(=O)n2[nH]1 | RNA-dependent RNA polymerase | IC50 | - | 1–10 µM
COc1ccc(-c2ccc(Cl)cc2)c(-c2ccc3cc(-c4nc5cc(C(=O)O)ccc5n4C4CC(C)CC(C)(C)C4)ccc3n2)c1 | NS5B polymerase | inhibition | 33 µM | 101%

A second listing of 2 rows from above:

structure,target,read-out,tested at,value
Cc1ccsc1-c1nc(C(=O)O)c(O)c(=O)[nH]1,HCV polymerase,IC50,-,<25 µM
O=C(O)c1ccc2c(c1)nc(-c1ccc3nc(-c4cccc(OCC(=O)N5CCCC5)c4)ccc3c1)n2C1CCCCC1,NS5B polymerase,inhibition,33 µM,95.76%

a–b is a range or a potency band. Inhibition is in % at the dose shown (toxicity tests: loss of growth or viability). An empty or dashed field is not shown. Neighbouring rows are from separate reports.